PubChem BioAssay AID1224833, University of Georgia | 2016

- Screen: 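Host factors restraining rotavirus as candidate antiviral genes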 (primary screen)
- Cell system: monkey MA104 kidney cells
- Knock-down reagent: siRNA pool against human genes, 50 nM
- Timing: 48 h knock-down before infection; read 24 h after infection
- Conditions: infection with rotavirus strain RV3 two days after transfection; infectious dose for this stage not given
- Read-out: 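z-score of rotavirus antigen signal per well, from a fluorescent immunoassay, relative to non-targeting control wells on the same plate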
- Reading the numbers: z-score vs non-targeting control: higher = more rotavirus replication than with non-targeting control
- Rule for the call: In these data the active calls have z-score vs non-targeting control at about -1 or lower, or at about 1 or higher
- Calls: active = z-score beyond 1 either way; inactive = z-score within 1 of zero
The whole screen tested about 12,000 reagents; this is a random part of them. Of all reagents, about 5,600 (46%) are marked active. 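Active calls cover z-scores past 1 in both directions, so they include lowered as well as raised rotavirus replication.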

no.	gene	z-score vs non-targeting control	Call
1	MYF5 (myogenic factor 5)	-1.54	active
2	ATOSA (atos homolog A)	1.07	active
3	ADIPOR1 (adiponectin receptor 1)	0.0904	inactive
4	CD52 (CD52 molecule)	-0.443	inactive
5	ZC3H8 (zinc finger CCCH-type containing 8)	0.752	inactive
6	MCM10 (minichromosome maintenance 10 replication initiation factor)	0.346	inactive
7	EYS (EGF-like photoreceptor maintenance factor)	-0.941	inactive
8	GATA6 (GATA binding protein 6)	0.545	inactive
9	NAPEPLD (N-acyl phosphatidylethanolamine phospholipase D)	-0.807	inactive
10	MAG (myelin associated glycoprotein)	0.265	inactive
11	USH1C (USH1 protein network component harmonin)	2.03	active
12	APLP2 (amyloid beta precursor like protein 2)	-1.66	active
13	SNCAIP (synuclein alpha interacting protein)	0.756	inactive
14	CEACAM21 (CEA cell adhesion molecule 21)	0.0904	inactive
15	GAL3ST1 (galactose-3-O-sulfotransferase 1)	-0.77	inactive
16	SLU7 (spliceosome associated SLU7)	-1.9	active
17	ANGPTL6 (angiopoietin like 6)	0.96	inactive
18	XPO4 (exportin 4)	-1.27	active
19	OSBPL2 (oxysterol binding protein like 2)	1.29	active
20	PTF1A (pancreas associated transcription factor 1a)	-0.862	inactive
21	ZNF26 (zinc finger protein 26)	-1.71	active
22	P4HTM (prolyl 4-hydroxylase, transmembrane)	-2.07	active
23	MRPS11 (mitochondrial ribosomal protein S11)	-1.1	active
24	GIT1 (GIT ArfGAP 1)	-0.426	inactive
25	SLC4A4	-1.68	active
26	POLR3F (RNA polymerase III subunit F)	0.398	inactive
27	LSP1 (lymphocyte specific protein 1)	-0.546	inactive
28	SLC22A24	-1.14	active

8 entries already listed, sorted by “z-score vs non-targeting control”, lowest first.
gene	z-score vs non-targeting control	Call
EYS (EGF-like photoreceptor maintenance factor)	-0.941	inactive
NAPEPLD (N-acyl phosphatidylethanolamine phospholipase D)	-0.807	inactive
CD52 (CD52 molecule)	-0.443	inactive
ADIPOR1 (adiponectin receptor 1)	0.0904	inactive
MAG (myelin associated glycoprotein)	0.265	inactive
MCM10 (minichromosome maintenance 10 replication initiation factor)	0.346	inactive
GATA6 (GATA binding protein 6)	0.545	inactive
ZC3H8 (zinc finger CCCH-type containing 8)	0.752	inactive

Additional records:
no.	gene	z-score vs non-targeting control	Call
29	TSPAN32 (tetraspanin 32)	-1.17	active
30	LCE4A (late cornified envelope 4A)	0.89	inactive
31	SLC41A1	1.37	active
32	ROBO4 (roundabout guidance receptor 4)	0.639	inactive
33	RFC5 (replication factor C subunit 5)	1.69	active
34	FZD8 (frizzled class receptor 8)	0.617	inactive
35	CCKBR (cholecystokinin B receptor)	-1.26	active
36	SRP14 (signal recognition particle 14)	0.328	inactive
37	STPG1 (sperm tail PG-rich repeat containing 1)	-1.18	active
38	PSMG3 (proteasome assembly chaperone 3)	0.902	inactive
39	NME1-NME2 (NME1-NME2 readthrough)	1.05	active
40	HNRNPH1 (heterogeneous nuclear ribonucleoprotein H1)	1.31	active
41	DHX30 (DExH-box helicase 30)	-1.12	active
42	CRABP2 (cellular retinoic acid binding protein 2)	-1.28	active
43	TRRAP (transformation/transcription domain associated protein)	-1.26	active
44	DEFB125 (defensin beta 125)	-0.699	inactive
45	NFKBIE (NFKB inhibitor epsilon)	-1.36	active
46	VAPB (VAMP associated protein B and C)	-0.589	inactive
47	RPP40 (ribonuclease P/MRP subunit p40)	0.132	inactive
48	KIFBP (kinesin family binding protein)	-0.725	inactive
49	VANGL1 (VANGL planar cell polarity protein 1)	-0.0467	inactive
50	OSBPL9 (oxysterol binding protein like 9)	-1.46	active
51	E2F4 (E2F transcription factor 4)	-2.18	active
52	EPYC (epiphycan)	0.479	inactive
53	PPAT (phosphoribosyl pyrophosphate amidotransferase)	-0.918	inactive
54	ZNF273 (zinc finger protein 273)	1.25	active
55	CHRM1 (cholinergic receptor muscarinic 1)	-0.603	inactive
56	SMAD4 (SMAD family member 4)	-1.26	active
57	FOXD4L5 (forkhead box D4 like 5)	-2.06	active
58	LRTM2 (leucine rich repeat transmembrane protein 2)	-0.9	inactive
59	HDAC6 (histone deacetylase 6)	1.18	active
60	DNASE2B (deoxyribonuclease 2 beta)	-0.841	inactive
61	FCRL3 (Fc receptor like 3)	1.09	active
62	CFAP58 (cilia and flagella associated protein 58)	3.32	active
63	DVL1 (dishevelled segment polarity protein 1)	-0.649	inactive
64	POFUT2 (protein O-fucosyltransferase 2)	0.983	inactive
65	SANBR (SANT and BTB domain regulator of CSR)	-1.85	active
66	ARL4A (ARF like GTPase 4A)	-0.834	inactive
67	ARL6 (ARF like GTPase 6)	-0.68	inactive
68	RAD23A (RAD23 nucleotide excision repair protein A)	-2.04	active
69	BMPER (BMP binding endothelial regulator)	-1.08	active
70	PHLDA3 (pleckstrin homology like domain family A member 3)	-0.6	inactive
71	TBX19 (T-box transcription factor 19)	-1.82	active
72	NIF3L1 (NGG1 interacting factor 3 like 1)	1.38	active
73	DCBLD2 (discoidin, CUB and LCCL domain containing 2)	-1.26	active
74	MAP7 (microtubule associated protein 7)	-0.59	inactive
75	CIP2A (cellular inhibitor of PP2A)	1.85	active
